Test results taken from paper PMC2913955, “Whole-cell fungal transformation of precursors into dyes” (Microbial Cell Factories, 2010).

Experiments:
Fomes fomentarius (FF25) = test: Consumption of AHBS by immobilized FF25 in different transformation media (MEKC); assay type: cell-based; details: FF25 on PMS
[1] = test system: Trametes versicolor (TV7); test: Whole-cell biotransformation in liquid culture, biomass immobilized on PMS; assay type: cell-based; details: strain TV7 on PMS, 1 mM precursor, 10 times diluted GPA, 48 hours, at product λmax (2,5DABS: sum of 460 and 544 nm)

SMILES | yield of AHBS transformation after 24 hours (Fomes fomentarius (FF25); 1 mM and 5 mM AHBS, systems A-D) | AHBS present in the reaction mixture after 24 hours of transformation (Fomes fomentarius (FF25); 5 mM AHBS incubated in Na-tartrate buffer (system A)) [mM] | AHBS concentration transformed during 24 hours (Fomes fomentarius (FF25); 10 mM AHBS, 100 and 10 times diluted GPA medium (system C and D)) | Absorbance of product (Abs) [1] [Abs]
Nc1cc(S(=O)(=O)O)ccc1O [AHBS, 3-amino-4-hydroxybenzenesulfonic acid] | transformed completely | 0.8 | More than 50% | 5.94 ± 0.11
Nc1cccc2c(S(=O)(=O)O)cccc12 [ANS, 5-amino-1-naphthalenesulfonic acid] |  |  |  | 0.71 ± 0.02
Nc1ccc(N)c(S(=O)(=O)O)c1 [2,5DABS, 2,5-diaminobenzenesulfonic acid] |  |  |  | 5.40 ± 0.05
Nc1ncccc1O [Precursor 2A3HP, 2-amino-3-hydroxypyridine] |  |  |  | 4.79 ± 0.18
